From patent US20130046134A1, “METHODS OF GENERATINGENGINEEREDINNERVATEDTISSUE AND USES THEREOF” (published 2013)

Tested on: co-cultured cells (ventricular cardiomyocytes with cortical neurons)

Substance: Tetrotodoxin
- Observed effect on Co-culture Sub-pop 1 (action potential, co-culture sub-population 1, optical mapping): little to none
- Observed effect on Co-culture Sub-pop 2 (action potential, co-culture sub-population 2, optical mapping): little to none
- Expected effect on mature AP (predicted effect of channel blocker on mature action potential): AP inhibition
- Expected effect on neonatal AP (predicted effect of channel blocker on neonatal action potential): little to none
